# Results of single-concentration screens

From ChEMBL document CHEMBL3988442, “University of Dundee, Small-Polar-MMV Screening Library” (2021).

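Growth of Mycobacterium tuberculosis over 3 days (7H9 medium with glucose and tyloxapol); the read-out is not stated. Tested at 50 µM. The record gives no direction; compounds that gave an IC50 in retests scored well above the rest, so higher reads as more growth inhibition. Size under these conditions: about 69,000 compounds, about 760 of them at 50% or above in at least one test.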

Each number is a percent effect as filed. The record does not define 0% and 100%; most values in the screen are far below 50% and negative numbers occur (in some assays of this library far below -100). Many other results are left out here, so strong results are more common than in the screen. Two or more numbers in one place are separate tests of the same structure; such repeats can differ widely.

Result for CCn1nnc(NCc2cc(Br)cc(Br)c2OC)n1 was 38.15%. Result for [H][C@]12CC[C@]([H])(CN(Cc3cc(C(C)(C)C)[nH]n3)C1)N(Cc1ccccn1)C2 was 6.828%. With O=C(c1cnccn1)N1CCCC(c2cccc(-n3ccnc3)n2)C1 (centres unmarked) the screen gave 6.336%. O=C(c1cnc(-c2noc3cc(N4CCCC4)ccc23)s1)N1CCCC1 read 54.53% and -2.864%. For O=C(NCCO)c1ccn(-c2ccc3ccccn23)n1 the result was -26.54%. Result for COc1ccccc1C(O)CNc1nccc(-c2ccc(C)nc2C)n1 (centres unmarked) was 11.09% and 13.96%.

With CSc1nccc(N2CCC3(CCCN(Cc4cccc(C)c4)C3)C2)n1 (centres unmarked) the screen gave 8.122%. Result for Cc1ccc(CN(CCCn2ccnc2)Cc2c[nH]cn2)s1.O=C(O)CC(O)(CC(=O)O)C(=O)O was 21.79%. Cc1nccn1C1CCCN(C(=O)c2ccc(N(C)C)nn2)C1 (centres unmarked) read -24.8%. Cc1cccc(C(=O)NCc2ccnc(N(C)C)c2)n1 read -3.217%. For O=C(CCc1ccco1)Nc1ccc(Br)cn1 the result was 27.81%. For Cc1nn(C)cc1C(=O)NCc1cc(N(C)C)nc2ccccc12 the result was 14.84%.

Cc1cc(C(=O)N2CCC(Nc3cccnc3)CC2)c(C)s1 read -16.86%. With CCCNC(=O)NC(=O)CNC(C)(C)c1ccc2c(c1)OCO2 the screen gave 0.9899% and 23.89%. With CC(C)c1ccc(-c2nnn(CCNS(C)(=O)=O)n2)cc1 the screen gave 27.6%. CCc1cnc(N)nc1NC(C)c1cnn(C)c1 (centres unmarked) read -15.85%. CC(C)c1nc(CSc2nnc(-c3cccs3)n2CC(N)=O)no1 gave 55.45%. For Cc1cc(NCCC(=O)NC(C)C)nc(-c2ccncc2)n1 the result was 68.7%.

For Cc1noc(C)c1C(C)NC(=O)N1CCC(NC(=O)c2ccsc2)CC1 (centres unmarked) the result was -10.57% and 1.819%. Result for COC1CCN(c2ccc(F)cc2CN(C)CC(N)=O)CC1 was 38.68%. Result for COc1ccc(-n2cc(CNC(=O)c3cc[nH]n3)nn2)cc1 was 3.652% and 6.811%. With O=C(Cn1nnn(-c2cccs2)c1=O)NCC1CCOC1 (centres unmarked) the screen gave -14.81% and -8.528%. Cc1c(Br)cccc1C(=O)Nc1cc(C(N)=O)n(C)c1 gave -2.544%. [H][C@]12CC[C@]([H])(CN(S(=O)(=O)c3cccnc3)C1)N(Cc1ccccc1)C2 gave -1.052%.

Result for CN(Cc1ccccc1)CC(O)Cn1cnc2sccc2c1=O (centres unmarked) was 12.42%. CC(C)c1ccc(C(CN)N2CCc3sccc3C2)cc1 (centres unmarked) read 83.07%. CC(C)c1ccc(NC(=O)c2ncc(C(N)=O)cc2Cl)cc1 read 3.901%. For CC(=O)N1CCN(C(=O)CN2CCN(c3cccc(C)c3)CC2)CC1 the result was -2.401%. Result for CSc1nccc(N2CCC3(CCCN(CCc4ccccc4)C3)C2)n1 (centres unmarked) was 58.12%. Cc1nc[nH]c1CN1CCCC12CCN(c1nc3ccccc3s1)CC2 gave 63.01%.

Result for OCc1cc2ccccc2nc1N1CCCC1 was 22.24%. O=S(=O)(NCCNc1ccc(-n2cccc2)nn1)c1cccs1 read 63.08% and 64.16%. O=C1C(Nc2ncccn2)CCN1c1ccccc1OC(F)F (centres unmarked) read 13.3% and 16.24%.

Some entries from above, unchanged:

SMILES	effect
O=C(c1cnccn1)N1CCCC(c2cccc(-n3ccnc3)n2)C1 (centres unmarked)	6.336%
CSc1nccc(N2CCC3(CCCN(Cc4cccc(C)c4)C3)C2)n1 (centres unmarked)	8.122%
CN(Cc1ccccc1)CC(O)Cn1cnc2sccc2c1=O (centres unmarked)	12.42%